Anti-infective test results gathered from many reports (values: NIAID ChemDB through PubChem).

Shared fields: tests on isolated targets; organism: HIV-1; target: Reverse transcriptase; read-out: inhibition

Percent inhibition refers to the dose given; in toxicity tests it is the harm to the cells. Blank or dashed fields: not listed here. Lines come from different laboratories, so protocols vary.

smiles	strain or isolate	changes	dose	method	result
[O]=[W](=[O])([O-])[O-]	-	-	100 µM	ELISA	7%
COc1cc(/C=C/C(=O)CC(=O)/C=C/c2ccc(O)c(OC)c2)ccc1O	-	-	200 µM	ELISA	29%
O=C1CSC(c2c(Cl)cccc2Cl)N1Cc1ccco1	-	-	10 µg/mL	ELISA	62%
CCN1c2ncccc2C=Cc2cccnc21	-	RT-K103N	1 µM	nucleotide incorporation	55%
Clc1ccccc1-c1nc2cccc(Cl)n2c1NC1CCCCC1	-	-	50 µM	ELISA	96.1%
O=[Se](=O)([O-])[O-]	-	-	100 µM	ELISA	14%
Clc1ccccc1-c1nc2ccc3ccccc3n2c1NC1CCCCC1	-	-	50 µM	ELISA	87.5%
C1CCNCCNCCCNCCNC1	-	-	0.35 µM	-	64%
CC1(C)C=Cc2c(c(O)cc3oc4cc(O)cc(O)c4c(=O)c23)O1	-	-	200 µg/mL	RT activity / radiometric	62.06%
[Cs+]	-	-	100 µM	ELISA	1%
Cc1coc(N2C(=O)CSC2c2c(Cl)ncnc2Cl)n1	-	-	100 µg/mL	RT activity / ELISA / absorbance	65.81%
CSCCN1C(=O)c2ccccc2Oc2nc(Cl)ccc21	-	-	1 µM	HPLC	72%
CC1(C)[C@@H](O[C@H]2O[C@H](C(=O)O)[C@@H](O)[C@H](O)[C@H]2O[C@@H]2O[C@H](C(=O)O)[C@@H](O)[C@H](O)[C@H]2O)CC[C@]2(C)[C@H]3C(=O)C=C4[C@@H]5C[C@@](C)(C(=O)O)CC[C@]5(C)CC[C@@]4(C)[C@]3(C)CC[C@@H]12	-	-	250 µg/mL	-	96.9%
O=C1CSC(c2c(Cl)cccc2Cl)N1C1CCCCC1	-	-	10 µg/mL	ELISA	10.08%
Cc1cccc2nc(-c3ccccc3Cl)c(NC3CCCC3)n12	-	-	50 µM	ELISA	88.7%
CC(=O)c1ccc(C)cc1NC(C(N)=O)c1c(Cl)cccc1Cl	-	-	0.16 µg/mL	-	10.4%
COc1cc(-c2cc(O)c(OC)c(OC)c2)ccc1O	-	-	200 µg/mL	RT activity / radiometric	-2.53%
Cc1cc(Cl)c2c(c1O)C(=O)C=CC2=O	-	-	50 µg/mL	RT activity	68%
COc1c(O)cc(O)c2c(=O)c3cc(O)ccc3oc12	-	-	200 µg/mL	RT activity / radiometric	93.05%
C[C@@H]1[C@H](O)[C@@H](C)/C=C/C=C/C=C/C=C/C=C/C=C/C=C/[C@H](O[C@@H]2O[C@H](C)[C@@H](O)[C@H](N)[C@@H]2O)CC2O[C@](O)(CC(O)C(O)CCC(O)CC(O)CC(O)CC(=O)O[C@H]1C)CC(O)C2C(=O)O.O=S(=O)(O)O	-	-	1000 µg/mL	RT activity	98.8%
O=C1CSC(c2c(Cl)cncc2Cl)N1n1cnnc1	-	-	100 µg/mL	RT activity / ELISA / absorbance	62.03%
CN=C1CN=C(c2ccc[nH]2)c2cc(Cl)ccc2N1	-	-	25 µM	ELISA	62%
CC1OC(OC2C(Oc3cc(O)c4c(=O)c(O)c(-c5ccc(O)cc5)oc4c3)OC(CO)C(O)C2O)C(O)C(O)C1O	MC99	-	200 µg/mL	RT activity / fluorescence	40.9%
Cc1cc(O)c2c(c1Br)C(=O)C=CC2=O	-	-	100 µg/mL	RT activity	70%
Clc1ccccc1-c1nc2cccc(Cl)n2c1NC1CCCC1	-	-	50 µM	ELISA	94.9%
COc1ccc2[nH]c(=O)oc2c1	-	-	8 µM	-	1.4%
CC/C=C\C/C=C\C/C=C\CCCCCCCC(=O)OC[C@H](CO[C@H]1O[C@H](CS(=O)(=O)O)[C@@H](O)[C@H](OC(=O)CCCCCCCCCCCCCCC)[C@H]1OC(=O)CCCCCCCCCCCCCCC)OC(=O)CCCCCCCCCCCCCCC	-	-	10 µM	nucleotide incorporation / radiometric	100%
COc1cc2cc3c(c(-c4ccc5c(c4)OCO5)c2cc1OC)COC3=O	-	-	15 µM	nucleotide incorporation / radiometric	>80%
Cc1cccn2c(NC3CCCC3)c(-c3ccccc3Cl)nc12	-	-	50 µM	ELISA	86.2%
CC1(C)C=Cc2c(cc(O)c3c(=O)c4cccc(O)c4oc23)O1	-	-	200 µg/mL	RT activity / radiometric	30.17%
Cc1cccc(N2C(=O)CSC23CCCCC3)n1	-	-	10 µg/mL	ELISA	22%
[O]=[V+2]	-	-	10 µM	ELISA	34%
CC1(C)CC[C@]2(C(=O)O)CC[C@]3(C)C(=CCC4[C@@]5(C)CC[C@H](O)C(C)(C)[C@@H]5CC[C@]43C)C2[C@@H]1O	MC99	-	200 µg/mL	RT activity / fluorescence	37%
Cc1cc(O)c2c(c1)C(=O)C=CC2=O	-	-	25 µg/mL	RT activity	94%
O=[Se]([O-])[O-]	-	-	100 µM	ELISA	14%
CCc1c(Sc2ccccn2)n(COCc2ccccc2)c(=O)[nH]c1=O	-	RT-Y188H	50 µM	-	75%
O=C1CSC(c2ccnc3ccccc23)N1c1ccccn1	-	-	10 µg/mL	ELISA	19.2%
CC1OC(OC2C(Oc3cc(O)c4c(=O)c(O)c(-c5ccc(O)c(O)c5)oc4c3)OC(CO)C(O)C2O)C(O)C(O)C1O	MC99	-	200 µg/mL	RT activity / fluorescence	60.9%
O=C1CSC2(CCCCC2)N1c1ccccn1	-	-	10 µg/mL	ELISA	0%
O=C1CSC(c2c(Cl)ncnc2Cl)N1c1ncccn1	-	-	10 µg/mL	RT activity / ELISA / absorbance	29.78%
O=[As]O	-	-	100 µM	ELISA	37%
O=C1CN=C(c2ccc[nH]2)c2cc(Cl)ccc2N1	-	-	250 µM	ELISA	19%
[Li+]	-	-	100 µM	ELISA	10%
CCOc1cc(C)c(Cl)c2c1C(=O)C=CC2=O	-	-	100 µg/mL	RT activity	80%
CC(C)(C)c1coc(N2C(=O)CSC2c2c(Cl)ncnc2Cl)n1	-	-	10 µg/mL	RT activity / ELISA / absorbance	2.53%
Cc1nc(N2C(=O)CSC2c2c(Cl)cccc2Cl)ccc1Br	-	-	10 µg/mL	ELISA	32.2%